Test results taken from article PMC8062000, “High-throughput screening of the ReFRAME, Pandemic Box, and COVID Box drug repurposing libraries against SARS-CoV-2 nsp15 endoribonuclease to identify small-molecule inhibitors of viral activity” (PLoS ONE, 2021).

Tests used:
[1] = biological target: SARS-CoV-2 nsp15 endoribonuclease (endoU) (Severe acute respiratory syndrome coronavirus 2, UniProt P0DTD1); experiment: nsp15 endoribonuclease FRET assay (1°, 2°, 3°); type: biochemical
[2] = system: SARS-CoV-2; experiment: In vitro CPE assay in Vero 76 cells; type: cell-based
[3] = read-out: 2° FRET Assay IC50, secondary dose response, 8-point 3-fold, top concentration 10 μM
[4] = read-out: 3° FRET Assay IC50, tertiary dose response, expanded concentration range

Row | Structure (SMILES) | IC50 [1, 3] [µM] | IC50 [1, 4] [µM] | selectivity index (SI) ([2]; Vero 76, microscopic observation) | selectivity index (SI) ([2]; Vero 76, neutral red staining) | 3° FRET Assay IC50 ([1]; tertiary dose response, expanded concentration range)
1 | O=C1C(NC2CCCCCCC2)=CC(=O)c2ncccc21 [Azaquinone] | 3.12 |  |  |  | 
2 | O=C(Nc1cccc(C2=NCCN2)c1)c1ccc(-c2ccc(C(=O)Nc3cccc(C4=NCCN4)c3)cc2)cc1 [MMV1580853] | > 10 | 11.5 |  |  | 
3 | Cc1nc2c(s1)C(=O)C=C(NCCN(C)C)C2=O [BN-82685] | 6.32 |  |  |  | 
4 | O=C(Nc1ccc(O)c(O)c1)c1cccc(O)c1O [Exebryl-1] | 1.06 |  | 5.2 | 3.6 | 
5 | O=C1NC(=O)/C(=C\c2ccccc2)C2=C1CCCC2 [Tesimide] | 1.09 | 0.75 |  |  | sub-micromolar

Where two headings read alike, the source gives them in different places.
